Anti-infective test results gathered from many reports (values: NIAID ChemDB through PubChem).

All rows: cytotoxicity tests; cell line: HFF; read-out: CC50

An empty or dashed field is not shown. Neighbouring rows are from separate reports. CCn: concentration that lowers growth or viability of the cells by n%.

smiles	method	value
O=C(Nc1ccc(NC(=S)Nc2cc(C(F)(F)F)cc(C(F)(F)F)c2)cc1)c1cscn1	MTS	≥10 µg/mL
CSc1nc2snc(C)c2n1[C@H]1C[C@H](O)[C@@H](CO)O1	visual reading	32 µM
CN(C)c1c(C#N)c2cc(Cl)c(Cl)cc2n1[C@@H]1O[C@H](CO)[C@@H](O)[C@H]1O	-	100 µM
O=C(NCc1ccc(Cl)cc1)c1c[nH]c2c(F)cccc2c1=O	-	>100 µM
NNc1nnnc2c1ncn2[C@@H]1O[C@H](CO)[C@@H](O)[C@H]1O	-	70 µM
COC(=O)C(Cc1c[nH]c2ccccc12)NP(=O)(O)OCC1C/C1=C/n1cnc2c(N)ncnc21	-	90 µM
CCCCCCCCCCCCCCCCCCOCCOP1(=O)CO[C@@H](Cn2ccc(N)nc2=O)CO1	neutral red	68 µM
CC(C)Nc1nc2cc(Cl)c(Cl)cc2n1[C@@H]1O[C@@H](CO)[C@@H](O)[C@H]1O	visual reading	>100 µM
OCCOCn1cnc2c(Cl)cc(Cl)cc21	visual reading	>100 µM
C[C@H]1O[C@H](n2c(Cl)nc3cc(Cl)c(Cl)cc32)[C@@H](O)[C@H]1O	visual reading	60 µM
Nc1nc2c(ncn2C=C2CC2CO)c(=O)[nH]1	-	>429 µM
COC(=O)[C@H](C)NP(=O)(OC[C@H]1C/C1=C/n1cnc2c(N)nc(N)nc21)Oc1ccccc1	neutral red	121 µM
CC(C)[C@H](N)C(=O)NCC(=O)OCC(COC(=O)CNC(=O)[C@@H](N)C(C)C)OCn1cnc2c(=O)[nH]c(N)nc21	-	≥126 µM
O=C(Nc1ccc(NC(=S)Nc2ccccc2)cc1)c1ccco1	MTS	≥10 µg/mL
CCCCCCCCCCCCCCCCCCOC[C@H](COP(=O)(O)CO[C@H](CO)Cn1ccc(N)nc1=O)OCc1ccccc1	neutral red	47 µM
O=C(NCc1ccc(Cl)cc1)c1c[nH]c2c(F)cc(CCCO)cc2c1=O	-	>50 µM
COc1c(C#N)c2cc(Cl)c(Cl)cc2n1[C@@H]1O[C@H](CO)[C@@H](O)[C@H]1O	-	100 µM
COC(=O)[C@H](C)NP(=O)(OC[C@H]1C/C1=C/n1cnc2c(OC)nc(N)nc21)Oc1ccccc1	neutral red	33.3 µM
CC(C)Nc1c(C=O)c2cc(Cl)c(Cl)cc2n1[C@@H]1O[C@H](CO)[C@@H](O)[C@H]1O	-	3.2 µM
Nc1ccn(C[C@@H](CO)OCP(=O)(O)O)c(=O)n1	-	>317 µM
Cc1cn([C@@H]2O[C@H](CO)[C@H]2CO)c(=O)[nH]c1=O	neutral red	>100 µg/mL
CSc1nnnc2c1ncn2[C@@H]1O[C@H](CO)[C@@H](O)[C@H]1O	-	100 µM
OC[C@H]1O[C@@H](n2c(Br)nc3cc(Cl)c(Cl)cc32)[C@H](O)[C@@H]1O	-	>250 µM
Cc1nsc2nc[nH]c12	visual reading	32 µM
Brc1ccc(Nc2ncnc3ccccc23)cc1	-	2 µM
Nc1n[nH]c(=O)c2c1ncn2[C@@H]1O[C@H](CO)[C@@H](O)[C@H]1O	-	70 µM
CCCCCCCCCCCCCCCCCCOCCCOP(=O)(O)CO[C@H](CO)Cn1ccc(N)nc1=O	neutral red	44 µM
Nc1ncnc2c1ncn2C=C1CC1CO	neutral red	>459 µM
CC(=O)OCCOCn1ccc2c(Cl)nc(Cl)nc21	-	100 µM
NC(=S)c1cn(Cc2ccccc2)c2ncnc(N)c12	-	>32 µM
Nc1ncnc2c1ncn2/C=C1\[C@H](CO)C1(F)F	-	>100 µM
COc1cc(OC)c(NC(=S)Nc2ccc(NC(=O)c3ccco3)cc2C)cc1Cl	MTS	≥10 µg/mL
CCCCCCCCCCCCCCCCCOC[C@H](COP1(=O)CO[C@@H](Cn2ccc(N)nc2=O)CO1)OCc1ccccc1	-	77 µM
Nc1nc2c(ncn2/C=C2/CC2[C@H](O)CO)c(=O)[nH]1	neutral red	>300 µM
Nc1nc2c(Cl)c(Cl)ccc2n1COC(CO)CO	visual reading	>100 µM
COc1c(C=O)c2cc(Cl)c(Cl)cc2n1[C@@H]1O[C@H](CO)[C@@H](O)[C@H]1O	-	32 µM
CC(C)[C@H](N)C(=O)OCC(COC(=O)[C@@H](N)C(C)C)OCn1cnc2c(=O)[nH]c(N)nc21	-	≥147 µM
CCCCCCCC/C=C\CCCCCCCCOCCOP(=O)(O)CCCOCn1cnc2c(=O)[nH]c(N)nc21	-	>100 µM
Nc1nc2c(ncn2/C=C2/CC2[C@@H](O)CO)c(=O)[nH]1	neutral red	>300 µM
CCCCCCCCCCCCCCCCOP1(=O)CO[C@@H](Cn2ccc(N)nc2=O)CO1	-	83 µM
Nc1nc2c(ncn2[C@H]2C[C@]23C[C@H]3CO)c(=O)[nH]1	-	>100 µM
Nc1nc(N)c2ncn(C=C3CC3CO)c2n1	neutral red	>431 µM
Cc1cccc(Cn2c(N)c(C#N)c3c(N)ncnc32)c1	visual reading	100 µM
OCCOCn1cnc2cc(Cl)c(Cl)cc21	visual reading	>100 µM
COC(=O)[C@H](C)NP(=O)(OCC1C/C1=C/n1cnc2c(N)ncnc21)Oc1ccccc1	-	4.3 µM
COc1cc(OC)c(NC(=S)Nc2ccc(NC(=O)c3ccco3)cc2C#N)cc1Cl	MTS	≥10 µg/mL
OCCOCn1c(Cl)nc2c(Cl)c(Cl)ccc21	visual reading	>100 µM
CC(=O)OCC(CO)OCn1cnc2c(=O)[nH]c(N)nc21	-	>70 µg/mL
O=Cc1cn([C@@H]2C[C@H](O)[C@@H](CO)O2)c(=O)[nH]c1=O	neutral red	>300 µM
Nc1nc(Cl)c2ncn(/C=C3/C[C@H]3CO)c2n1	neutral red	185 µM
CC(C)(C)COc1nc(N)nc2c1ncn2/C=C1/C[C@@H]1CO	neutral red	>300 µM
CN[C@H]1C[C@@H](n2cnc3c(N)ncnc32)[C@H](O)[C@@H]1O	-	100 µg/mL
CCCCCCCCCCCCOCCCOP(=O)(O)CO[C@H](CO)Cn1ccc(N)nc1=O	neutral red	>190 µM
CCCCCCOc1nc(N)nc2c1ncn2/C=C1/C[C@@H]1CO	neutral red	>300 µM
Nc1ncnc2c1ncn2[C@H]1C[C@@]12C[C@H]2CO	-	>100 µM
Nc1[nH]nc2c1c1cc(Cl)c(Cl)cc1n2[C@@H]1O[C@H](CO)[C@@H](O)[C@H]1O	visual reading	5 µM
O=C(Nc1ccc(NC(=S)Nc2ccc(C(F)(F)F)c(Cl)c2)cc1)c1ccccn1	MTS	≥10 µg/mL
Nc1ncnc2c1ncn2[C@H]1C[C@]12C[C@H]2CO	-	>100 µM
COc1cc(OC)c(NC(=S)Nc2ccc(NC(=O)c3ccco3)c(OC)c2)cc1Cl	MTS	≥10 µg/mL
N=c1c2ncn(Cc3c(F)cccc3Cl)c2ncn1O	-	0.1 µg/mL
CC(=O)OCC(COC(C)=O)OCn1cnc2c(=O)[nH]c(N)nc21	-	>100 µg/mL
CCCCCCCCCCCCO[C@H]1O[C@H](COP(=O)(O)C(=O)O)[C@@H](O)[C@H](O)[C@H]1O	-	770 µM
Nc1ncnc2c1ncn2[C@H]1C[C@]12C[C@@H]2CO	-	>100 µM
OC[C@H]1O[C@@H](n2c(SCc3ccccc3)nc3sncc32)[C@@H](O)[C@@H]1O	visual reading	2.1 µM
Nc1ncnc2c1ncn2[C@H]1C[C@@]12C[C@@H]2CO	-	>100 µM
O=c1ccn([C@@]23C[C@H](O)[C@@H](CO)[C@@H]2C3)c(=O)[nH]1	-	>100 µg/mL
C[C@@H]1O[C@@H](n2c(Br)nc3cc(Cl)c(Cl)cc32)[C@H](O)[C@@H]1O	visual reading	>100 µM
O=C(NCc1ccc(Cl)cc1)c1c[nH]c2ccc(C#CCO)cc2c1=O	-	41.7 µM
Nc1ccn(C[C@H]2COP(=O)(O)CO2)c(=O)n1	-	>331 µM
OCCOCn1cnc2c(Cl)c(Cl)ccc21	visual reading	>100 µM
COC(=O)[C@H](C)NP(=O)(OCC1C/C1=C/n1cnc2c(=O)[nH]c(N)nc21)Oc1ccccc1	-	>206 µM
Nc1nc2cc(Cl)c(Cl)cc2n1COCCO	visual reading	>100 µM
CNc1nnnc2c1ncn2[C@@H]1O[C@H](CO)[C@@H](O)[C@H]1O	-	70 µM
C=CCO[C@]1(C)C[C@@H](C)CN(C)[C@H](C)[C@@H](O)[C@](C)(O)[C@@H](CC)OC(=O)[C@H](C)[C@@H](O[C@H]2C[C@@](C)(OC)[C@@H](O)[C@H](C)O2)[C@H](C)[C@H]1O[C@@H]1O[C@H](C)C[C@H](N(C)C)[C@H]1O	MTS	96 µM
Nc1ncnc2c1ncn2/C=C1/CC1(CO)CO	neutral red	>380 µM
Nc1nc2c(ncn2C=C2CC2CO)c(=O)[nH]1	neutral red	>429 µM
CCCCCCCCCCCCCCO[C@@H]1O[C@H](COP(=O)(O)C(=O)O)[C@@H](O)[C@H](O)[C@H]1O	-	649 µM
CCCCCCCC/C=C\CCCCCCCOCCCOP(=O)(O)CO[C@H](CO)Cn1ccc(N)nc1=O	neutral red	87 µM
COCCOCn1cc(C(N)=S)c2c(N)ncnc21	-	≥100 µM
CCCCCCCCCCCCCCCCOCCCOP1(=O)CO[C@@H](Cn2ccc(N)nc2=O)CO1	neutral red	>100 µM
Nc1nc(SC2CCCC2)c2ncn(/C=C3/C[C@@H]3CO)c2n1	neutral red	>300 µM
CCCCNc1c(C#N)c2cc(Cl)c(Cl)cc2n1[C@@H]1O[C@H](CO)[C@@H](O)[C@H]1O	-	32 µM
CCCCCCCC/C=C\CCCCCCCOCCCOP1(=O)CO[C@@H](Cn2ccc(N)nc2=O)CO1	neutral red	46 µM
CC(C)Nc1nc2cc(Cl)c(Cl)cc2n1[C@H]1O[C@@H](CO)[C@H](O)[C@@H]1O	neutral red	243 µM
Nc1nc(N)c2ncn(COCCCP(=O)(O)O)c2n1	-	>300 µM
CSc1nc2sncc2n1[C@H]1C[C@H](O)[C@@H](CO)O1	visual reading	15 µM
Nc1nc2c(ncn2COCCCP(=O)([O-])O)c(=O)[nH]1	-	>100 µM
COc1cc(OC)c(NC(=S)Nc2ccc(NC(=O)c3ccco3)c(C)c2)cc1Cl	MTS	≥10 µg/mL
CCCC(=O)OCC(CO)OCn1cnc2c(=O)[nH]c(N)nc21	-	>100 µg/mL
COc1nc(N)nc2c1ncn2/C=C1/C[C@H]1CO	-	>404 µM
O[C@@H]1[C@H](O)[C@H](O)CO[C@H]1n1c(Br)nc2cc(Cl)c(Cl)cc21	-	130 µM
CCO[C@@H]1[C@@H](OCC)[C@H](Cc2ccccc2)O[C@@H]2CO[C@@H](c3ccc(Cl)cc3)O[C@@H]12	-	50 µg/mL
CSc1nc(N)nc2c1ncn2/C=C1/C[C@@H]1CO	neutral red	>300 µM
CCCCCCCCCCCCCCCCOCCCOP(=O)(O)CCCOCn1cnc2c(N)nc(N)nc21	-	54.3 µM
CCCCCCCC/C=C/CCCCCCCCO[C@H]1O[C@H](COP(=O)(O)C(=O)O)[C@@H](O)[C@H](O)[C@H]1O	-	519 µM
Nc1ccn([C@@]23C[C@H](O)[C@@H](CO)[C@@H]2C3)c(=O)n1	-	>100 µg/mL
CCCCCCCCCCCCCCO[C@H]1O[C@H](CO)[C@@H](O)[C@H](O)[C@H]1O	-	264 µM
Nc1nc2c(ncn2/C=C2\CC2(CO)COP(=O)(O)O)c(=O)[nH]1	neutral red	>392 µM

For reference, 6 entries again:

| smiles | method | value |
|---|---|---|
| Nc1nc2c(Cl)c(Cl)ccc2n1COC(CO)CO | visual reading | >100 µM |
| COC(=O)[C@H](C)NP(=O)(OC[C@H]1C/C1=C/n1cnc2c(N)nc(N)nc21)Oc1ccccc1 | neutral red | 121 µM |
| CCCCCCCC/C=C/CCCCCCCCO[C@H]1O[C@H](COP(=O)(O)C(=O)O)[C@@H](O)[C@H](O)[C@H]1O | - | 519 µM |
| O=C(Nc1ccc(NC(=S)Nc2cc(C(F)(F)F)cc(C(F)(F)F)c2)cc1)c1cscn1 | MTS | ≥10 µg/mL |
| Nc1ncnc2c1ncn2/C=C1/CC1(CO)CO | neutral red | >380 µM |
| CC(C)Nc1nc2cc(Cl)c(Cl)cc2n1[C@H]1O[C@@H](CO)[C@H](O)[C@@H]1O | neutral red | 243 µM |